Experimental data published in paper PMC5608353 (PLoS ONE, 2017).

Experiments:
C. perfringens CVCC 46 [1] = type: cell-based, Clostridium perfringens type A
C. perfringens CVCC 46 [2] = type: cell-based, Clostridium perfringens type A; remark: listed apart in the source
[3] = tested on: C. perfringens CVCC 46 genomic DNA; type: binding, Clostridium perfringens type A
[4] = tested on: C. perfringens genomic DNA; type: binding, Clostridium perfringens; conditions: 25°C
C. perfringens CVCC 46 [5] = type: cell-based, Clostridium perfringens type A; remark: listed apart in the source
C. perfringens CVCC 46 [6] = conditions: CVCC 46, 18 h
C. perfringens CVCC 51 = conditions: CVCC 51, 18 h
C. perfringens CVCC 1137 = conditions: CVCC 1137, 18 h
C. perfringens JT1 = conditions: JT1, 18 h
C. perfringens JZ10 = conditions: JZ10, 18 h
C. perfringens JC2 = conditions: JC2, 18 h
C. perfringens CVCC 46 [7] = tested on: C. perfringens CVCC 46
[8] = tested on: human erythrocytes, epidermal keratinocytes, A549 cells, murine L929 fibroblasts, porcine intestinal epithelial cell line ZYMSIEC02; conditions: cited from earlier work

CC[C@H](C)[C@@H]1NC(=O)[C@H](CO)NC(=O)[C@H](CCCCN)NC(=O)[C@@H]2CSSC[C@@H](C(=O)N[C@@H](Cc3ccc(O)cc3)C(=O)O)NC(=O)[C@H](CCCCN)NC(=O)[C@@H]3CSSC[C@H](NC(=O)[C@H](CCCNC(=N)N)NC(=O)[C@H](CC(C)C)NC(=O)[C@H](CC(=O)O)NC(=O)[C@H](CC(=O)O)NC(=O)[C@H](CCC(=O)O)NC(=O)[C@H](CC(N)=O)NC(=O)[C@H](Cc4c[nH]c5ccccc45)NC(=O)[C@@H]4CCCN4C(=O)CNC(=O)[C@H](CC(N)=O)NC(=O)[C@@H](NC(=O)CNC(=O)[C@H](Cc4ccccc4)NC(=O)CN)CSSC[C@H](NC(=O)[C@H](Cc4ccc(O)cc4)NC(=O)CNC(=O)CNC(=O)[C@H](CCCCN)NC(=O)[C@H](Cc4ccc(O)cc4)NC(=O)CNC(=O)[C@H](CCCCN)NC1=O)C(=O)N[C@@H](C)C(=O)N[C@@H](CCCCN)C(=O)NCC(=O)NCC(=O)N[C@@H](Cc1ccccc1)C(=O)N[C@@H](C(C)C)C(=O)N3)C(=O)N[C@@H](Cc1c[nH]cn1)C(=O)N[C@@H](CC(N)=O)C(=O)N[C@@H](Cc1c[nH]cn1)C(=O)N2 [NZ2114]
Bacterial regrowth in time-kill curve (C. perfringens CVCC 46 [1]): no bacterial regrowth
Time to 99.9% reduction of bacterial counts (C. perfringens CVCC 46 [1]): ≤ 1 h
PI-stained percentages of cells, range over time (C. perfringens CVCC 46 [2]): 41.6~97.9%
Binding to genomic DNA (gel retardation) [3]: interacted with MDR C. perfringens CVCC 46 genomic DNA
Peptide/DNA mass ratio for complete retardation of DNA migration [3]: > 10.0
Change of CD spectrum of genomic DNA [4]: DNA ellipticity intensity decreased
Shift of CD spectrum of genomic DNA [4]: slight redshift
Ratio of cells in phase I (C. perfringens CVCC 46 [5]): 9.08% and 17.32%
MBC (C. perfringens CVCC 46 [6]): 0.91 µM (≈ 4.01 µg/mL)
MIC (C. perfringens CVCC 46 [6]): 0.91 µM (≈ 4.01 µg/mL)
MIC (C. perfringens CVCC 51): 0.91 µM (≈ 4.01 µg/mL)
MIC (C. perfringens CVCC 1137): 1.81 µM (≈ 7.98 µg/mL)
MIC (C. perfringens JT1): 0.46 µM (≈ 2.03 µg/mL)
MIC (C. perfringens JZ10): >14.5 µM
MIC (C. perfringens JC2): >14.5 µM
MICa (MIC of drug used alone) (C. perfringens CVCC 46 [7]): 0.91 µM
FICI, range over the tested antibiotics (C. perfringens CVCC 46 [7]; CVCC 46): 0.5~0.75
Hemolysis / cytotoxicity [8]: non-hemolytic or non-cytotoxic

≈ marks a conversion by molar mass, not a printed value. Where “and” joins values, the source holds several entries; their conditions need not be identical. Equal values may be shown once.
